Results of unrelated studies side by side (data: NIAID ChemDB).

All rows: whole-cell or culture tests; organism: HIV-1

Blank or dashed fields: not listed here. ECn is the concentration giving n% inhibition of infection, replication or growth. Lines come from different laboratories, so protocols vary. Two numbers with a dash give a range or band. Fold resistance has wild type as its base. Percent inhibition refers to the dose given; in toxicity tests it is the harm to the cells.

| SMILES | cell line | strain or isolate | endpoint | dose | changes | method | value |
|---|---|---|---|---|---|---|---|
| CC(C)C1=C2[C@H]3CC[C@@H]4[C@@]5(C)CC[C@H](OC(=O)[C@H]6C[C@@H](C(=O)O)C6(C)C)C(C)(C)[C@@H]5CC[C@@]4(C)[C@]3(C)CC[C@@]2(CCN(CCN(C)C)C(=O)c2ccccc2Cl)CC1=O | MT-2 | 92HT599 | EC50 | - | - | p24 / ELISA | <1 µM |
| Cc1ccc(C2CC2)c(-c2ccc3c(c2)CCCO3)c1[C@H](OC(C)(C)C)C(=O)O | MT-4 | NL4-3 | fold resistance | - | NRTI/NNRTI resistant K103N/Y181C | luminescence | 1 |
| Cc1cc2cn[nH]c2cc1NC(=O)COc1ccc(Cl)cc1C(=O)c1cccc(C#N)c1 | HeLa + HELA CD4+ | HXB2 | fold resistance | - | RT-V106A | β-galactosidase | ~100 |
| CC(C)C1=C2[C@H]3CC[C@@H]4[C@@]5(C)CC[C@H](OC(=O)[C@H]6C[C@@H](C(=O)O)C6(C)C)C(C)(C)[C@@H]5CC[C@@]4(C)[C@]3(C)CC[C@@]2([C@@H](O)CNCc2cnn3cccnc23)CC1=O | MT-2 | 92HT599 | EC50 | - | - | p24 / ELISA | <1 µM |
| CC(C)=CCN1Cc2cccc3[nH]c(=O)n(c23)CC1C | CEM + CEM-SS | UC781-R (RT-Y181C) | fold resistance | - | RT-Y181C | cytopathic effect / XTT | 118 |
| CC(C)=CCOc1cc(NC(=S)c2ccsc2C)ccc1Cl | CEM + CEM-SS | NL4-3 | fold resistance | - | RT-K103N | p24 | 12 |
| CCC(=O)c1ccc(F)c([C@@H]2C[C@@H]2NC(=O)Nc2ccc(C#N)cn2)c1O | TZM-bl | LAI | fold resistance | - | NNRTI-resistant (RT K103N) | β-galactosidase / luminescence | 34.6 |
| S=C(NCCc1ccccc1)N1CCCc2ccccc21 | MT-4 | - | inhibition | 10 µg/mL | - | cytopathic effect / XTT | 0% |
| Cc1cc(S(N)(=O)=O)ccc1NC(=O)COc1ccc(Cl)cc1C(=O)c1cccc(C#N)c1 | HeLa + HELA CD4+ | HXB2 | fold resistance | - | RT-K101E | β-galactosidase | ~1 |
| Fc1cccc(Cl)c1CCNC(=S)Nc1nccs1 | MT-4 | - | inhibition | 1 µg/mL | - | cytopathic effect / XTT | 98–100% |
| CC(C)C1=C2[C@H]3CC[C@@H]4[C@@]5(C)CC[C@H](OC(=O)[C@H]6C[C@@H](C(=O)O)C6(C)C)C(C)(C)[C@@H]5CC[C@@]4(C)[C@]3(C)CC[C@@]2(CCN(CCN(C)C)Cc2cncnc2)CC1=O | MT-2 | 92HT599 | EC50 | - | - | p24 / ELISA | <1 µM |
| O=C1Nc2ccc(Cl)cc2[C@@](C#CC2CC2)(C(F)(F)F)N1 | - | - | EC90 | - | RT-K103N V108I | - | ~0.04 µM |
| CC(C)C1=C2[C@H]3CC[C@@H]4[C@@]5(C)CC[C@H](OC(=O)[C@H]6C[C@@H](C(=O)O)C6(C)C)C(C)(C)[C@@H]5CC[C@@]4(C)[C@]3(C)CC[C@@]2(CC(=O)NCC(C)(C)NC(=O)c2ccc(N3CCS(=O)(=O)CC3)cc2)CC1=O | MT-2 | 92HT599 | EC50 | - | - | p24 / ELISA | <1 µM |
| O=C(c1ccccc1)N(CCc1ccccc1)C[C@H](O)CN(CC1CCCC1)S(=O)(=O)C1CCS(=O)(=O)CC1 | CEM | IIIB | EC90 | - | - | p24 | 1 µM |
| CC(C)=CCOc1cc(NC(=S)c2ccsc2C)ccc1Cl | CEM + CEM-SS | Diphenyl sulfone-resistant (RT-Y181C) | fold resistance | - | RT-Y181C | cytopathic effect / XTT | 25 |
| Cc1ccc(C2CC2)c(-c2cc(F)c3c(c2C)CCCO3)c1[C@H](OC1CC1)C(=O)O | MT-4 | NL4-3 | fold resistance | - | INSTI-resistant (IN-E92Q) | luminescence | 1 |
| CN(C)C(=O)C(=O)N(C)C1CN(C2CCCC2)CCn2c1nc(C(=O)NCc1ccc(F)cc1)c(O)c2=O | MT-4 | - | EC95 | - | - | p24 | <1 µM |
| Cc1cc(OCCCS(N)(=O)=O)ccc1NC(=O)COc1ccc(Cl)cc1C(=O)c1cc(F)cc(C(F)(F)F)c1 | HeLa + HELA CD4+ | HXB2 | fold resistance | - | RT-Y188C | β-galactosidase | ~1 |
| CC(C)CN(CC(O)CCc1ccccc1C(=O)NC(C)(C)C)S(=O)(=O)c1ccccc1 | CEM | IIIB | EC90 | - | - | p24 | 1 µM |
| Nc1nc(NC2CC2)c2ncn([C@H]3C=C[C@@H](CO)C3)c2n1 | MT-4 | NL-XM WT | EC90 | - | - | p24 | 1.9 µM |
| Cc1cc(C#N)cc(C(=O)c2cc(Cl)ccc2OCC(=O)Nc2ccc(S(N)(=O)=O)cc2C)c1 | HeLa + HELA CD4+ | HXB2 | fold resistance | - | RT-K103N P225H | β-galactosidase | ~1 |
| CCOc1ccc2nc(NC(=O)NCCc3ccccc3)sc2c1 | MT-4 | - | inhibition | 100 µg/mL | - | cytopathic effect / XTT | 33% |
| O=C(O)c1cc(-n2cccc2)ccc1Cl | PBMC/5.25M7 | CMU02 X4 CLADE EA | EC90 | - | - | luciferase / cell fusion | 129 µM |
| CC(=O)N1Cn2c(nc(C(=O)NCc3ccc(F)cc3)c(O)c2=O)C1(C)C | MT-4 | - | EC95 | - | - | p24 | <50 µM |
| COc1ccnc2[nH]cc(C(=O)C(=O)N3CCN(C(=O)c4ccccc4)C[C@H]3C)c12 | TZM-bl | 6535 | EC90 | - | - | luciferase | 0.005 µM |
| Cc1cc(S(N)(=O)=O)ccc1NC(=O)COc1ccc(Cl)cc1C(=O)c1cc(F)cc(C(F)(F)F)c1 | HeLa + HELA CD4+ | HXB2 | fold resistance | - | RT-E138K | β-galactosidase | ~1 |
| CC(C)C1=C2[C@H]3CC[C@@H]4[C@@]5(C)CC[C@H](OC(=O)[C@H]6C[C@@H](C(=O)O)C6(C)C)C(C)(C)[C@@H]5CC[C@@]4(C)[C@]3(C)CC[C@@]2(CCNCC(C)(C)NC(=O)c2ccc(N3CCCCC3)cc2)CC1=O | MT-2 | 92HT599 | EC50 | - | - | p24 / ELISA | <1 µM |
| CN1CCn2c(nc(C(=O)NCc3ccc(F)cc3)c(O)c2=O)C1CN(C)S(=O)(=O)N(C)C | MT-4 | - | EC95 | - | - | p24 | 1–10 µM |
| COc1ccnc2[nH]cc(C(=O)C(=O)N3C4CC3CN(C(=O)c3ccccc3)C4)c12 | TZM-bl | ZM214 | EC99 | - | - | luciferase | >>250 µM |
| O=C(c1ccccc1)N(CCc1ccccc1)C[C@H](O)CN(CC1CCCC1)S(=O)(=O)C1CCCCC1 | CEM | IIIB | EC90 | - | - | p24 | 1 µM |
| Cc1cc(OCCCN2CCOCC2)ccc1NC(=O)COc1ccc(Cl)cc1C(=O)c1cccs1 | MT-4 | Nevirapine-resistant (RT Y181C) | fold resistance | - | RT-Y181C | cytopathic effect / propidium iodide | ~1 |
| CN1CCn2c(nc(C(=O)NCc3ccc(F)c(Br)c3)c(O)c2=O)C1(C)C | MT-4 | - | EC95 | - | - | p24 | <1 µM |
| CC(C)=CCOc1cc(NC(=S)c2ccoc2C)ccc1Cl | CEM + CEM-SS | UC38-RS (RT-Y181C) | fold resistance | - | RT-Y181C | cytopathic effect / XTT | 90 |
| O=C(NCCc1ccccc1)Nc1nc(C(F)(F)F)cs1 | MT-4 | - | inhibition | 10 µg/mL | - | cytopathic effect / XTT | 16–31% |
| CC(C)C1=C2[C@H]3CC[C@@H]4[C@@]5(C)CC[C@H](OC(=O)[C@H]6C[C@@H](C(=O)O)C6(C)C)C(C)(C)[C@@H]5CC[C@@]4(C)[C@]3(C)CC[C@@]2([C@@H](O)CNCC(C)(C)NC(=O)c2ccc(O[C@H]3CCOC3)cc2)CC1=O | MT-2 | 92HT599 | EC50 | - | - | p24 / ELISA | <1 µM |
| Cc1cc(C#N)cc(C(=O)c2cc(Cl)ccc2OCC(=O)Nc2ccc(S(N)(=O)=O)nc2C)c1 | MT-4 | Nevirapine-resistant (RT Y181C) | fold resistance | - | RT-Y181C | cytopathic effect / propidium iodide | ~1 |
| O=C1Nc2ccc(F)c(F)c2[C@@](/C=C/C2CC2)(C(F)(F)F)N1 | - | - | EC90 | - | RT-K103N | - | 0.021 µM |
| CCCCOC(=O)c1ccc(NC(=O)NCCc2ccccc2)cc1 | MT-4 | - | inhibition | 1 µg/mL | - | cytopathic effect / XTT | 0% |
| O=C(c1ccccc1)N(CCc1ccccc1)C[C@H](O)CN(CC1CCCC1)S(=O)(=O)c1nccs1 | CEM | IIIB | EC90 | - | - | p24 | 1 µM |
| Cc1cc(Cl)cc(C(=O)c2cc(Cl)ccc2OCC(=O)Nc2ccc(S(N)(=O)=O)cc2C)c1 | HeLa + HELA CD4+ | HXB2 | fold resistance | - | RT-V106A Y181C | β-galactosidase | ~10 |
| CC1c2nc(C(=O)NCc3ccc(F)cc3)c(O)c(=O)n2CCN1Cc1ccnn1C | MT-4 | - | EC95 | - | - | p24 | <1 µM |
| CC(C)[C@H](NC(=O)OCc1ccccn1)C(=O)N[C@@H](Cc1ccccc1)[C@@H](O)C[C@H](Cc1ccccc1)NC(=O)OCc1cccnc1 | MT-4 | NL4-3 | EC95 | - | PR-M46I L63P V82T I84V | p24 | 3 µM |
| Cc1cn([C@H]2C=C[C@@H](CO)O2)c(=O)[nH]c1=O | MT-4 | XM-M184V | EC90 | - | RT-M184V | p24 | 0.3 µM |
| O=C(NCCc1ccccc1)Nc1ccc(F)cc1 | MT-4 | - | inhibition | 1 µg/mL | - | cytopathic effect / XTT | 5% |
| COCCOc1ccc(C(=O)NCC[C@@]23CC[C@]4(C)[C@H](CC[C@@H]5[C@@]6(C)CC[C@H](OC(=O)[C@H]7C[C@@H](C(=O)O)C7(C)C)C(C)(C)[C@@H]6CC[C@]54C)C2=C(C(C)C)C(=O)C3)cc1 | MT-2 | 92HT599 | EC50 | - | - | p24 / ELISA | <1 µM |

4 of the rows above, restated:

{"SMILES": "CC(C)C1=C2[C@H]3CC[C@@H]4[C@@]5(C)CC[C@H](OC(=O)[C@H]6C[C@@H](C(=O)O)C6(C)C)C(C)(C)[C@@H]5CC[C@@]4(C)[C@]3(C)CC[C@@]2(CCNCC(C)(C)NC(=O)c2ccc(N3CCCCC3)cc2)CC1=O", "cell line": "MT-2", "strain or isolate": "92HT599", "endpoint": "EC50", "method": "p24 / ELISA", "value": "<1 µM"}
{"SMILES": "CN1CCn2c(nc(C(=O)NCc3ccc(F)c(Br)c3)c(O)c2=O)C1(C)C", "cell line": "MT-4", "endpoint": "EC95", "method": "p24", "value": "<1 µM"}
{"SMILES": "S=C(NCCc1ccccc1)N1CCCc2ccccc21", "cell line": "MT-4", "endpoint": "inhibition", "dose": "10 µg/mL", "method": "cytopathic effect / XTT", "value": "0%"}
{"SMILES": "CC(=O)N1Cn2c(nc(C(=O)NCc3ccc(F)cc3)c(O)c2=O)C1(C)C", "cell line": "MT-4", "endpoint": "EC95", "method": "p24", "value": "<50 µM"}